Results published in the supplement of paper PMC9931576.
Human monoclonal antibodies against the spike receptor-binding domain (heavy:light variable regions). IC50 against pseudoviruses bearing the spike of naturally observed variants; lower = stronger; >10 µg/ml means not reached at the top dose. No active / inactive call. The stated detection limit is 0.0005 µg/ml; values near or below 0.001 µg/ml lie at the floor of the assay.

B1: BD55-1456 (protein)
chain 1: EVQLVESGGGLVQPGGSLRLSCAVSGFTVSANYMSWVRQAPGKGLEWVSVIYSGGSTFYADSVKGRFTISRHNSQNTLYLQMNNLRPEDTAVYYCARDGRGDLWRHWGQGTLVTVSS
chain 2: DIQMTQSPSSLSASVGDRVTITCQASQDIRNYLNWYQQKPGKAPKLLMYEASNLETGVPSRFSGSGSGTHFTFTIISLQPEDIATYYCQQYDNLPISFGGGTKVEIK
B2: BD55-1502 (protein)
chain 1: QVQLQESGPGLMKPSQTLSLTCTVSGGSFSSGGSYWYWIRQHPGKGLEWIGYISYSGSTYYNPSLRSRLTISVDTSKNQFSLRLSSVTAADTALYYCARASGFGELGLDYWGQGTLVTVSS
chain 2: DIQLTQSPSFLSASVGDRVTITCRASQGISSYLAWYQQKPGKAPKLLIYAASTLQSGVPSRFSGSGSGTEFTLTISSLQPEDFATYYCQQLNSYSITFGQGTRLEIK
B3: BD55-1508 (protein)
chain 1: EVQLVESGGGLVRPGGSLRLSCAASGFTFSSYWVSWVRQAPGKGLEWVANINHDGSEKYYLDSVKGRFTISRDNAKHSLYLQMNSLRAEDTAVYYCASHSQARPYFYFYMDVWGKGTTVTVSS
chain 2: DIVMTQSPLSLPVTPGEPASISCRSSQSLLHSNGYNYLDWFLQKPGQSPQLLMYMGSNRASGVPDRFSGSGSGTDFTLKISRVEAEDVGVYYCMQGLQTPFTFGQGTKLEIK
B4: BD55-1575 (protein)
chain 1: EGELVESGGGLIHPGGSLRLSCAASELVVSSNYMSWVRQAPGKGLEWVSVIYPGGSTFYADFVKGRFTISRDNSKNTLYLQMNSLRPDDTAMYYCAREALAKGTKVGATDFDYWGPGTRVTVSS
chain 2: DIQMTQSPSSLSASVGDRVTITCRASESISTSLNWYQQQPGKAPQLLIYAASGLHTGVPSRFSGSGSGTDFTLTISSLQPEDFATYYCQQSYSTPPYTFGQGTKLEIK
B5: BD55-1604 (protein)
chain 1: QVQLVQSGAEVKRPGSSVKVSCKAPGGTFSRYPINWVRQAPGQGLEWMGGIIPFFGTENYAQRFQGRLTITADESTTTAYMELTSLTSEDTALYYCARVQMQIIVEPAPMRDWYFDLWGRGTLVTVSS
chain 2: QSVLTQPPSVSAAPGQKVTISCSGSGSNIGNNYVSWYQQLPGAAPKLLIYDNDQRPSGIPDRFSGSKSGTSATLGITGLQTGDEADYYCGTWDSRLSAGIFGTGTKITVL
B6: BD55-1723 (protein)
chain 1: QVQLIQSGAEVKKPGSSVKVSCKAAGGTFNSYTISWVRQAPGHGLEWMGKIIPILGIPNQIEKVQGRVTITADKSTGTAYMELRSLRSEDTAVYYCVGDRYSGYGPFDYWGQGTLVTVSS
chain 2: QSVLAQPPSVSGAPGQRVTISCTGSNSNIGAGYDVHWYQQFPGTAPKLLISGNINRPSGVPVRFSASKSDTSASLAITGLQAEDEADYYCQSYDSSLSGSLFGGGTKLTVL

These binders were tested against SARS-CoV-2 Omicron BA.1 spike pseudovirus (assay: pseudovirus neutralization IC50; higher = weaker neutralization).
Procedure: (§1)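 Single-round VSV luciferase pseudovirus mixed with antibody dilutions for 1 h and put on Huh-7 cells for about a day; IC50 from the dose curve.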

| Binder | pseudovirus neutralization IC50 [µg/mL] |
| --- | --- |
| B1 | > 10 |
| B2 | > 10 |
| B3 | > 10 |
| B4 | 0.181 |
| B5 | > 10 |
| B6 | 0.382 |

The binders below were run against SARS-CoV-2 Omicron BA.2 spike pseudovirus in the same assay as above.
Procedure: as §1

| Binder | pseudovirus neutralization IC50 [µg/mL] |
| --- | --- |
| B1 | > 10 |
| B2 | > 10 |
| B3 | > 10 |
| B4 | 0.263 |
| B5 | > 10 |
| B6 | 0.159 |

These binders were tested against SARS-CoV-2 Omicron BA.2.75 spike pseudovirus in the same assay as above.
Procedure: as §1

| Binder | pseudovirus neutralization IC50 [µg/mL] |
| --- | --- |
| B1 | > 10 |
| B2 | > 10 |
| B3 | > 10 |
| B4 | 0.418 |
| B5 | > 10 |
| B6 | 0.172 |

These binders were tested against SARS-CoV-2 Omicron BA.5 spike pseudovirus in the same assay as above.
Procedure: as §1

| Binder | pseudovirus neutralization IC50 [µg/mL] |
| --- | --- |
| B1 | > 10 |
| B2 | > 10 |
| B3 | > 10 |
| B4 | 0.0178 |
| B5 | > 10 |
| B6 | > 10 |

The binders below were run against SARS-CoV-2 Omicron BQ.1.1 spike pseudovirus in the same assay as above.
Procedure: as §1

| Binder | pseudovirus neutralization IC50 [µg/mL] |
| --- | --- |
| B1 | > 10 |
| B2 | > 10 |
| B3 | > 10 |
| B4 | 0.369 |
| B5 | > 10 |
| B6 | > 10 |

The binders below were run against SARS-CoV-2 Omicron XBB spike pseudovirus in the same assay as above.
Procedure: as §1

| Binder | pseudovirus neutralization IC50 [µg/mL] |
| --- | --- |
| B1 | > 10 |
| B2 | > 10 |
| B3 | > 10 |
| B4 | > 10 |
| B5 | > 10 |
| B6 | 1.17 |

These binders were tested against SARS-CoV-2 early D614G spike pseudovirus in the same assay as above.
Procedure: as §1

| Binder | pseudovirus neutralization IC50 [µg/mL] |
| --- | --- |
| B1 | 0.00702 |
| B2 | 0.00996 |
| B3 | 1.43 |
| B4 | 0.0126 |
| B5 | > 10 |
| B6 | 0.145 |
